Broadly, the Km is the concentration of substrate that gives half-maximal velocity.

The results in this text go back to article PMC4791643, “Reconstruction of diaminopimelic acid biosynthesis allows characterisation of Mycobacterium tuberculosis N-succinyl-L,L-diaminopimelic acid desuccinylase” (Scientific Reports, 2016).

The subject of data set [1] is N[C@@H](CCC[C@H](NC(=O)CCC(=O)O)C(=O)O)C(=O)O. Briefly: purified protein. Conditions: pH 8.0; 37.0 °C.
Data set [2] concerns N[C@@H](CCC[C@H](NC(=O)CCCC(=O)O)C(=O)O)C(=O)O. Briefly: purified protein. Conditions: pH 8.0; 37.0 °C.

Take “MtDapE (Mycobacterium tuberculosis H37Rv)”: the Km is 31.09 ± 3.71 µM in data set [1] and 1024 ± 645 µM in data set [2].
